Results as given in publication PMC4696656, “Insights into the Mechanism of Action of Bactericidal Lipophosphonoxins” (PLoS ONE, 2015).
“Also recorded” adds a separate entry of the source.

System: B. subtilis
Assay: Localization of LPPOs within bacterial cells (fractionation, HPLC-MS)
Format: cell-based, Bacillus subtilis
Conditions: HPLC-MS of cell fractions

Structure (SMILES)	potential metabolites detected (monoacetylated compound)
CCCCCCCCCCCCCCCCOP(=O)(CCN1C[C@@H](O)[C@H](O)C1)OC[C@H]1O[C@@H](n2ccc(=O)[nH]c2=O)[C@H](O)[C@@H]1O (some centres unmarked) [DR5026]	only intact DR5026 was detected; also recorded: No detectable amounts of potential metabolites were found
CCCCCCCCCCCCCCCCOCCCOP(=O)(CCN1C[C@@H](O)[C@H](O)C1)OC[C@H]1O[C@@H](n2ccc(=O)[nH]c2=O)[C@H](O)[C@@H]1O (some centres unmarked) [DR5047]	< 5%
